A mixed list of measured activities; the numbers were collected in NIAID ChemDB.

Shared fields: toxicity to cultured cells; cells: CEM; measure: CC50

CCn is the concentration with n% toxicity to the cells.

compound,read by,result
O=C(c1ccccc1)c1ccc2c(c1)oc(=O)n2CCN1CCOCC1,-,22 µg/mL
Nc1ncnc2c1ncn2[C@@H]1O[C@@H](CO)C=C1F,-,>100 µM
CCCCCCCOC(=O)CCCCC(=O)O,-,>100 µg/mL
COP(=O)(OC)OP(=O)(OC)OP(=O)(OC)OC[C@H]1O[C@@H](n2ccc3c(N)ncnc32)[C@](C)(F)[C@@H]1O,-,>10 µM
Nc1ncnc2c1ncn2[C@@H]1C[C@@H](F)[C@H](CO)O1,-,>100 µM
c1ccc(COc2cccnc2SCc2ccccc2)cc1,cell count,9.7 µg/mL
[N-]=[N+]=NCCCCCCCCCCCCC(=O)O,-,17 µg/mL
CC(=O)n1c(=O)sc2cc(C(=O)c3cccc(F)c3)ccc21,-,14 µg/mL
COC(=O)Cn1c(=O)c(C)cn([C@@H]2O[C@H](CO[Si](C)(C)C(C)(C)C)[C@@H](O[Si](C)(C)C(C)(C)C)[C@H]2O)c1=O,-,13 µM
Nc1nc2c(ncn2[C@@H]2O[C@@H](CO)C=C2F)c(=O)[nH]1,-,>100 µM
O=P(O)(O)OP(=O)(O)OP(=O)(O)O,MTT,>100 µg/mL
FC(F)(F)[C@@]1(C#CC2CC2)OC(=S)Nc2ccc(Cl)cc21,-,>10 µM
O=S(=O)(Cc1ccc(F)cc1)c1cccc[n+]1[O-],cell count,24 µg/mL
CCCNC(=O)CCCCCCCCC(=O)O,-,>100 µg/mL
Nc1nc(=O)n([C@H]2O[C@@H](CO)C=C2F)cc1F,-,>100 µM
CCOC(=O)C1=C(C)NC(=O)NC1c1ccc(OC)cc1,-,>5 µM
NC/C=C/Cn1cc(F)c(=O)[nH]c1=O,cell count,12.6 µM
O=C(c1ccccc1)c1ccc2c(c1)oc(=O)n2CCN1CCCCC1,-,23 µg/mL
O=C(O)CCCCCCCCCCCn1ncnn1,-,168 µg/mL
O=C(Nc1cccc(-c2nc3cc(C(=O)Nc4ccc(S(=O)(=O)O)c5cc(S(=O)(=O)O)cc(S(=O)(=O)O)c45)ccc3[nH]2)c1)Nc1cccc(-c2nc3cc(C(=O)Nc4ccc(S(=O)(=O)O)c5cc(S(=O)(=O)O)cc(S(=O)(=O)O)c45)ccc3[nH]2)c1,-,64.8 µM
Cc1cn([C@@H]2O[C@H](CO[Si](C)(C)C(C)(C)C)[C@@H](O)[C@H]2O[Si](C)(C)C(C)(C)C)c(=O)n(CCCCC(=O)O)c1=O,-,22 µM
COc1c(N2CCN(CN3C(=O)O[C@](C#CC4CC4)(C(F)(F)F)c4cc(Cl)ccc43)CC2)c(F)cc2c(=O)c(C(=O)O)cn(C3CC3)c12,-,>10 µM
CN1c2c(-c3ccccc3)nn(CC(=O)N/N=C/c3ccc(Br)cc3)c2-c2ccccc2S1(=O)=O,-,46.9 µM
Cc1ccc(C)c(CS(=O)(=O)c2cccc[n+]2[O-])c1,cell count,32 µg/mL
CC(C)(C)[Si](C)(C)OC[C@H]1O[C@@H](n2cnc3c(=O)n(CC(=O)O)cnc32)[C@H](O)[C@@H]1O[Si](C)(C)C(C)(C)C,-,173 µM
Nc1nc2c(ncn2[C@@H]2C[C@@H](F)[C@H](CO)O2)c(=O)[nH]1,-,>100 µM
NC/C=C/Cn1ccc(=O)[nH]c1=O,cell count,>50 µM
C=CCOc1cc(NC(=S)c2sccc2C)ccc1C#N,-,11 µM
O=c1[nH]cnc2c1ncn2[C@H]1CC[C@@H](CCP(=O)(O)O)O1,-,>200 µM
CCCCCOC(=O)CCCCCCC(=O)O,-,>100 µg/mL
Cc1ccsc1C(=O)Nc1ccc(Cl)c(/C=N/OC(C)(C)C)c1,-,39 µM
CCCCCOC(=O)c1cc(NC(=O)C2=C(C)OCCS2)ccc1Cl,-,41 µg/mL
Cc1ccc(C)c(CSc2ccc(Cl)c[n+]2[O-])c1,cell count,>100 µg/mL
O=C1O[C@](C#CC2CC2)(C(F)(F)F)c2cc(Cl)ccc2N1CN1CCN(c2ccccc2)CC1,-,>10 µM
C#CCNc1nc(N)nc2c1ncn2[C@H]1C[C@H](N=[N+]=[N-])[C@@H](CO)O1,MTS,>100 µM
CCCOC(=O)c1cc(NC(=O)C2=C(C)OCCS2)ccc1Cl,-,>100 µg/mL
CCC(c1cc(C)ccc1C)S(=O)(=O)c1c(C)ccc[n+]1[O-],cell count,20 µg/mL
O=c1[nH]cnc2c1ncn2C[C@H]1C[C@H]1[C@H](O)CO,-,>100 µM
CC[C@H](C)C(NC(=O)c1ccccc1S)C(=O)O,-,>100 µM
Cc1ccc(C)c(CS(=O)c2ncccc2O)c1,cell count,>100 µg/mL
NC1=NS(=O)(=O)N(Cc2ccccc2)c2nc(-c3ccc(Cl)cc3)[nH]c21,-,9.9 µg/mL
COc1ccc(/C=C(/C#N)Sc2cccc[n+]2[O-])cc1,cell count,35 µg/mL
CCCCCCOC(=O)CCCCCC(=O)O,-,>100 µg/mL
Cc1ccc[n+]([O-])c1S(=O)(=O)C(C)c1cccc([N+](=O)[O-])c1C,cell count,96 µg/mL
CC(C)C(N)C(=O)O[C@@H](C[C@@H](Cc1ccccc1)C(=O)N[C@H]1c2ccccc2C[C@H]1O)CN1CCN(Cc2cccnc2)C[C@H]1C(=O)NC(C)(C)C,MTT,>100 µM
Cc1ccc(C)c(CS(=O)c2c(C)ccc[n+]2[O-])c1,cell count,42 µg/mL
O=C(O)CCCCCCCCCCCCn1ncnn1,-,179 µg/mL
COC(=O)CNP(=O)(OC[C@@H]1C=C[C@H](n2cc(C)c(=O)[nH]c2=O)O1)Oc1ccccc1,-,≥250 µM
Nc1ccn([C@H]2S[C@@H](CO)C=C2F)c(=O)n1,-,>100 µM
O=[N+]([O-])c1ccc(SCc2ccccc2)nc1,cell count,46 µg/mL
Nc1ncnc2c1ncn2[C@H]1CC[C@@H](CCP(=O)(O)O)O1,-,>200 µM
[N-]=[N+]=N[C@H]1C[C@H](n2cnc3c(NC4CC4)nc(Cl)nc32)O[C@@H]1CO,MTS,>100 µM
O=c1ccn(C[C@H]2C[C@H]2[C@H](O)CO)c(=O)[nH]1,-,>100 µM
Cc1cccc(NC(=O)c2ccccc2SSc2ccccc2C(=O)Nc2cccc(C)c2)c1,-,44 µM
Nc1ncnc2c1ncn2C[C@H]1C[C@H]1CO,-,>100 µM
CC(C)(C)[Si](C)(C)OC[C@@H]1CC[C@H](n2cnc3c(=O)n(CC(=O)O)cnc32)O1,-,>200 µM
Nc1nc(=O)n([C@@H]2O[C@@H](CO)C=C2F)cc1F,-,>100 µM
Nc1nc(=O)n([C@@H]2C=C[C@H](CO)O2)cc1F,-,>100 µM
CCCCCCC(=O)CCCCCCC(=O)O,-,15 µg/mL
CCC(CC)(NP(=O)(OC[C@@H]1C=C[C@H](n2cc(C)c(=O)[nH]c2=O)O1)Oc1ccccc1)C(=O)OC,-,80.3 µM
CCOC(=O)c1cc(NC(=O)C2=C(C)OCCS2)ccc1Cl,-,35 µg/mL
C=CC[C@H](NC(=O)[C@H](Cc1ccccc1)NS(=O)(=O)N1CCOCC1)C(=O)N[C@@H](CC1CCCCC1)[C@@H](O)C[C@H](C(=O)NCCCC)C(C)C,-,>13 µM
CC1=C(C(=O)Nc2ccc(F)c(C(=O)OC(C)C)c2)SCCO1,-,>100 µg/mL
Nc1nc(F)nc2c1ncn2[C@H]1O[C@@H](CO)C=C1F,-,19.5 µM
COc1ccc(OC)c(CS(=O)c2cccc[n+]2[O-])c1,cell count,≥100 µg/mL
O=C(Nc1ccc(O)cc1)c1ccccc1SSc1ccccc1C(=O)Nc1ccc(O)cc1,-,33 µM
CNOC(=O)Cn1c(=O)c(C)cn([C@@H]2O[C@H](CO[Si](C)(C)C(C)(C)C)[C@@H](O)[C@H]2O[Si](C)(C)C(C)(C)C)c1=O,-,19 µM
Cc1ccc(C(C)S(=O)c2cccc[n+]2[O-])cc1,cell count,0.59 µg/mL
NS(=O)(=O)c1ccc(NC(=O)c2ccccc2CSc2ccccc2C(=O)Nc2ccc(S(N)(=O)=O)cc2)cc1,-,>100 µM
CN1CCN(C(=O)c2ccc3c(=O)c4ccccc4[nH]c3c2)CC1,-,16 µg/mL
O=C1c2ccccc2C(=O)N1C/C=C/Cn1cc(C(F)(F)F)c(=O)[nH]c1=O,cell count,>50 µM
Cc1cn([C@H]2C[C@H](O)[C@@H](CO)O2)c(=O)n(CCF)c1=O,-,349 µg/mL
Cc1ccc(C)c(CS(=O)(=O)c2c(O)ccc[n+]2[O-])c1,cell count,>100 µg/mL
Cc1cn([C@H]2C[C@H](O)[C@@H](CO)O2)c(=O)n(C)c1=O,-,>500 µg/mL
CC1=C(C(=O)Nc2ccc(Cl)c(C(=O)OC3CCCCC3)c2)SCCO1,-,11 µg/mL
CN1c2c(-c3ccccc3)nn(CC(=O)N/N=C/c3cccc(Cl)c3)c2-c2ccccc2S1(=O)=O,-,12.1 µM
Cc1cn(C[C@H]2C[C@H]2CO)c(=O)[nH]c1=O,-,>100 µM
Cc1cn([C@@H]2O[C@H](COC(=O)C(C)(C)C)[C@@H](O)[C@H]2OC(=O)C(C)(C)C)c(=O)n(CC(=O)O)c1=O,-,>250 µM
O=c1[nH]c2ccc(Cc3cccc(F)c3)cc2s1,-,6.3 µg/mL
CCCCCCCC(c1cc(C)ccc1C)S(=O)(=O)c1cccc[n+]1[O-],cell count,3.4 µg/mL
Cc1cn([C@@H]2O[C@@H](CO)C=C2F)c(=O)[nH]c1=O,-,>100 µM
CN1c2c(-c3ccccc3)nn(CC(=O)N/N=C/c3ccccc3[N+](=O)[O-])c2-c2ccccc2S1(=O)=O,-,88.9 µM
CCCCCCCCCCCCCC(=O)OCC(NC(C)=O)C(OCC)OCC,trypan blue,>100 µM
NS(=O)(=O)c1ccc(NS(=O)(=O)c2ccccc2SSc2ccccc2S(=O)(=O)Nc2ccc(S(N)(=O)=O)cc2)cc1,-,>100 µM
O=[N+]([O-])c1ccc(O)c(CSc2cccc[n+]2[O-])c1,cell count,37 µg/mL
CCN1CCC(O)(/C=C/c2ccc(Cl)cc2)C(C(=O)/C=C/c2ccc(Cl)cc2)C1,-,9.4 µg/mL
NS(=O)(=O)c1ccc(NC(=O)c2ccccc2Sc2ccccc2C(=O)Nc2ccc(S(N)(=O)=O)cc2)cc1,-,>100 µM
O=[N+]([O-])c1ccc[n+]([O-])c1SCc1ccccc1,cell count,31 µg/mL
CCCCCCCCCCCCCCCC(=O)OCC(NC(C)=O)C(OCC)OCC,trypan blue,>100 µM
CCCOC(=O)c1ccc(C)c(NC(=O)C2=C(C)OCCS2)c1,-,41 µg/mL
COc1cccnc1SCc1cc(C)ccc1C,cell count,78 µg/mL
NC1=NS(=O)(=O)N(Cc2ccccc2)c2nc[nH]c21,-,91.3 µg/mL
CN1c2c(-c3ccccc3)nn(CC(=O)N/N=C/c3ccccc3F)c2-c2ccccc2S1(=O)=O,-,23.4 µM
CC[C@H](C)[C@H](NC(=O)c1ccccc1SSc1ccccc1C(=O)N[C@H](C(=O)O)[C@@H](C)CC)C(=O)O,-,110 µM
N#C/C(=C/c1ccc(Cl)cc1Cl)Sc1cccc[n+]1[O-],cell count,5.9 µg/mL
Nc1ccn([C@@H]2S[C@H](CO)C=C2F)c(=O)n1,-,>100 µM
COP(=O)(OC)OP(=O)(OC)OP(=O)(OC)OC[C@H]1O[C@@H](n2cc(F)c3c(N)ncnc32)[C@](C)(F)[C@@H]1O,-,>10 µM
O=C1c2ccccc2C(=O)N1C/C=C/Cn1cc(F)c(=O)[nH]c1=O,cell count,>50 µM
S=c1[nH]c(=S)c2c3c(sc2[nH]1)CCCC3,-,>100 µM
COC(=O)[C@H](C)NP(=O)(OC[C@@H]1C=C[C@H](n2cc(C)c(=O)[nH]c2=O)O1)Oc1ccccc1,-,100 µM
O=S(=O)(Cc1cccc(Br)c1)c1cccc[n+]1[O-],cell count,7.4 µg/mL
Nc1ccn([C@H]2O[C@@H](CO)C=C2F)c(=O)n1,-,>100 µM

Rows are shuffled and stem from different studies. Blank or dashed fields: not listed here.